From paper PMC3518039 (Journal of medicinal chemistry, 2012)

The chains behind the UniProt entries cited, without tags or fusion partners. Where a name states a change or a piece, a line headed by the entry shows the natural chain unless it says otherwise.
UniProt I6Y2J4: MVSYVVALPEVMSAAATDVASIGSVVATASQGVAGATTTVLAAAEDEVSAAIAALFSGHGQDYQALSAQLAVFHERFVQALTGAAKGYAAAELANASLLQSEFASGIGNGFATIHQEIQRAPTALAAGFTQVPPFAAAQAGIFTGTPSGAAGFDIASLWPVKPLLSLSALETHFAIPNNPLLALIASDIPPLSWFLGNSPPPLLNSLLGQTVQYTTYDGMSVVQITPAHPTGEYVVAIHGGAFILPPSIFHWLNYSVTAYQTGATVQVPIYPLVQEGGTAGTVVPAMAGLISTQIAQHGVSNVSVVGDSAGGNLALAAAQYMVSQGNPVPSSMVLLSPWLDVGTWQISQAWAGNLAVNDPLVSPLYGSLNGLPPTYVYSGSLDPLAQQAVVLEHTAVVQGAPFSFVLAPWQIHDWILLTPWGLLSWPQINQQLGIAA

Biological target: Mycobacterium tuberculosis LipY (triacylglycerol lipase) (Mycobacterium tuberculosis, UniProt I6Y2J4)
Format: biochemical

Structure (SMILES): CCCCCCCCCCCCCCCCOP1(=O)CCCC(C(=O)OC)=C(C)O1 (stereo not shown) [Compound 11, Methyl 7-methyl-2-(hexadecyloxy)-2,3,4,5-tetrahydro-1,2-oxaphosphepine-6-carboxylate 2-oxide]
- residual lipase activity (plateau), LipY: around 6.0%
